The subject of this data set is NCCCCCC(=O)O. As to the kind of experiment: purified protein. The following applies: 50 mM HEPES pH 7.5, 35 °C, 10 min, no cofactor or metal, cyclization to ε-caprolactam.

For the substance CF3HBD (Citrobacter freundii; Y152A), the Km was 2900 ± 100 µM, the kcat stood at 0.00347 s⁻¹ and the kcat/Km amounted to 1.22 M⁻¹ s⁻¹.

For the origin of these results see PMC6265244, “A synthetic microbial biosensor for high-throughput screening of lactam biocatalysts” (Nature Communications, 2018).
